Measurements from article PMC11042316, “Tetracistronic Minigenomes Elucidate a Functional Promoter for Ghana Virus and Unveils Cedar Virus Replicase Promiscuity for all Henipaviruses” (2024).

The chains behind the UniProt entries cited, without tags or fusion partners. Where a name states a change or a piece, a line headed by the entry shows the natural chain unless it says otherwise.
UniProt Q997F0: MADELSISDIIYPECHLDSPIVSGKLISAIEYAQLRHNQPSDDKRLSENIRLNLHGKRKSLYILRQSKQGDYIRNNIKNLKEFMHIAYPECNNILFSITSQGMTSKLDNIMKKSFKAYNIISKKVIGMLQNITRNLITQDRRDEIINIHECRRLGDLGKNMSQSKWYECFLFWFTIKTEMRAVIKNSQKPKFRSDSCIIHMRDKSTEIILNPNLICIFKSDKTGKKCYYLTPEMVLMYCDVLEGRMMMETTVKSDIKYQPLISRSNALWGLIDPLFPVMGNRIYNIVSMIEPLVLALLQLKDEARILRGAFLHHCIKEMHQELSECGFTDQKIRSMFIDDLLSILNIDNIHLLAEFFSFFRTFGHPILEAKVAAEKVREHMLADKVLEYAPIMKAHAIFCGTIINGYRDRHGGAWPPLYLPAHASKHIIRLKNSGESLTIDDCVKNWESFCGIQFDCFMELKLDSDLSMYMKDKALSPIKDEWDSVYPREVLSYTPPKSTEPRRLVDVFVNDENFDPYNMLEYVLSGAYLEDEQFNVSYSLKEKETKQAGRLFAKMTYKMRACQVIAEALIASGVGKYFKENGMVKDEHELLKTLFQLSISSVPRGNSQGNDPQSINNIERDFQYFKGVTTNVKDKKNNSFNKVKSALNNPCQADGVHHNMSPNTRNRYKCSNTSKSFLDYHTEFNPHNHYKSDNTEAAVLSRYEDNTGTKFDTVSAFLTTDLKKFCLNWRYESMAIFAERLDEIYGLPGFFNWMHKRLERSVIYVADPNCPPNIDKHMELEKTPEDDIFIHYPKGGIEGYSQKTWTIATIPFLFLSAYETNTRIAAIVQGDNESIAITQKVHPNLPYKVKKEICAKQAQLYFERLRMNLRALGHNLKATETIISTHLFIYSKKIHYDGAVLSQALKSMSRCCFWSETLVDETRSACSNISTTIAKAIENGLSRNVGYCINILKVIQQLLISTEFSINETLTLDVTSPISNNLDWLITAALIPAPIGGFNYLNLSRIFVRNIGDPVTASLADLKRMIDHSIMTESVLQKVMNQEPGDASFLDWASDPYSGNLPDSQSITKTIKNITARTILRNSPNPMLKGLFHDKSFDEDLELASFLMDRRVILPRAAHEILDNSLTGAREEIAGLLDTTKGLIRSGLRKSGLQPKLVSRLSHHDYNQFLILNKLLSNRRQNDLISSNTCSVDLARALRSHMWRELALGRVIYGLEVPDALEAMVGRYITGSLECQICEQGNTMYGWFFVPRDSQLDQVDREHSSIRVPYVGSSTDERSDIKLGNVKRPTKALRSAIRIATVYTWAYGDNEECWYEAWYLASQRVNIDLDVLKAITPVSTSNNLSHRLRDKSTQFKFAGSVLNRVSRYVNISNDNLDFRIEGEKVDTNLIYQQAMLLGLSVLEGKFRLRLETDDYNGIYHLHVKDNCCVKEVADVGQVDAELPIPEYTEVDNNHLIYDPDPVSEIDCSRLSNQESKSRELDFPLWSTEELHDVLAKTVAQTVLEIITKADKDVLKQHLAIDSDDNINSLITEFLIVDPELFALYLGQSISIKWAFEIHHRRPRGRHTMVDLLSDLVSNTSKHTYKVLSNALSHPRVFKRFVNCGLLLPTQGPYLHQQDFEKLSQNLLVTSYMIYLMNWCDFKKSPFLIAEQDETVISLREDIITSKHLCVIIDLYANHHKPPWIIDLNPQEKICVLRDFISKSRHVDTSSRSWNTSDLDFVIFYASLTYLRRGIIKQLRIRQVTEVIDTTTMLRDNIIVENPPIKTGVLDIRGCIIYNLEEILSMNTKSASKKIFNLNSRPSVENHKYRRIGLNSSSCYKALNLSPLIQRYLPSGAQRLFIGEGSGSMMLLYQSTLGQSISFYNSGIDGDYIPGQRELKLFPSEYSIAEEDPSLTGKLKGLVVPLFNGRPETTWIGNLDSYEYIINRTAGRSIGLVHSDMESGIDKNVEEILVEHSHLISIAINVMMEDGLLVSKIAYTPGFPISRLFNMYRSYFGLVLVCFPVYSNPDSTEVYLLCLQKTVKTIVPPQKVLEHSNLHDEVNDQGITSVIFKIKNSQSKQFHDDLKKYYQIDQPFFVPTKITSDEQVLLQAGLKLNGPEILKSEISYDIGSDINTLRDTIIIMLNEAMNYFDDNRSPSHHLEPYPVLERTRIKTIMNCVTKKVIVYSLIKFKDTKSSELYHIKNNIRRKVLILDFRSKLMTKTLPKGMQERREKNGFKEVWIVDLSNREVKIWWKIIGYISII

Target: NiV vRdRp / replicase (NiV-N, -P, -L) (Henipavirus nipahense, UniProt Q997F0)

O=c1ccn([C@@H]2O[C@](F)(CO)[C@@H](O)[C@H]2O)c(=O)[nH]1
IC50: 3.6 µM
